Compound potency records, mixed from different reports. Data source: NIAID ChemDB in PubChem.

Shared fields: tests in culture; organism: Mycobacterium smegmatis; measure: MIC

Rows are shuffled and stem from different studies.

{"compound": "O=C1CC(c2cccc(F)c2)Nc2ccccc21", "strain or isolate": "ATCC 607", "result": "62.5 µg/mL"}
{"compound": "NNC(=O)c1ccncc1", "strain or isolate": "mc2651", "result": "50 µg/mL"}
{"compound": "CCCCCCCCCCCCCCCCCCCC#CC(=O)O", "strain or isolate": "mc2155", "result": ">300 µg/mL"}
{"compound": "Cc1ccccc1NC(=O)CCCCCc1[nH]c2ccccc2c1C1=C(Br)C(=O)NC1=O", "strain or isolate": "SG987", "result": "12.5 µg/mL"}
{"compound": "CCCCCOc1cc(-c2cccc(F)c2)nc2ccccc12", "strain or isolate": "ATCC 607", "result": "125 µg/mL"}
{"compound": "Cc1ccccc1NC(=O)CCCCCCc1[nH]c2ccccc2c1C1=C(Br)C(=O)NC1=O", "strain or isolate": "SG987", "result": "0.25 µg/mL"}
{"compound": "CCCCCCCCCCCCCCCCCC#CC(=O)O", "strain or isolate": "mc2155", "result": ">300 µg/mL"}
{"compound": "CCCCCCCCOc1cc(-c2ccccc2F)nc2ccccc12", "strain or isolate": "ATCC 607", "result": "500 µg/mL"}
{"compound": "CN1C(=O)C(Br)=C(c2c[nH]c3ccccc23)C1=O", "strain or isolate": "SG987", "result": "6.25 µg/mL"}
{"compound": "CC[C@H]1OC(=O)[C@H](C)[C@@H](O[C@H]2C[C@@](C)(OC)[C@@H](O)[C@H](C)O2)[C@H](C)[C@@H](O[C@@H]2O[C@H](C)C[C@H](N(C)C)[C@H]2O)[C@](C)(OC)C[C@@H](C)C(=O)[C@H](C)[C@@H](O)[C@]1(C)O", "strain or isolate": "mc155", "result": "12.5 µg/mL"}
{"compound": "CCCCCCCCCC#CC(=O)O", "strain or isolate": "mc2155", "result": ">300 µg/mL"}
{"compound": "CCCCCCCCCCCCCCCCCCCCCCC(=O)NC(C)(CCC(=O)O)CCC(=O)O", "strain or isolate": "mc155", "result": "36 µg/mL"}
{"compound": "CCCCCCCCCCCC#CC(=O)O", "strain or isolate": "mc2155", "result": "268 µg/mL"}
{"compound": "CC[C@H](C)[C@@H](NC(=O)[C@@H](CCC(=O)O)NC(=O)[C@H](Cc1cnc[nH]1)NC(=O)[C@H](CC(C)C)NC(=O)[C@@H](C)N)C(=O)N[C@H]1CCCCNC1=O", "result": ">50 µg/mL"}
{"compound": "CCCCCCCCN(CCCCCCCC)C(=O)NC(CCC(=O)O)(CCC(=O)O)CCC(=O)O", "strain or isolate": "mc155", "result": "54 µg/mL"}
{"compound": "CCCCCCCCCOc1cc(-c2ccccc2F)nc2ccccc12", "strain or isolate": "ATCC 607", "result": "500 µg/mL"}
{"compound": "O=C1NC(=O)C(c2c(-c3ccccc3)[nH]c3ccccc23)=C1Br", "strain or isolate": "SG987", "result": "18.4 µg/mL"}
{"compound": "CCCCCCCCCCCCCCCCNC(=O)NC(CCC(=O)O)(CCC(=O)O)CCC(=O)O", "strain or isolate": "mc155", "result": "18 µg/mL"}
{"compound": "CCCCCCCCCCCCCCCOc1cc(-c2cccc(F)c2)nc2ccccc12", "strain or isolate": "ATCC 607", "result": "125 µg/mL"}
{"compound": "CCCc1[nH]c2ccccc2c1C1=C(Br)C(=O)NC1=O", "strain or isolate": "SG987", "result": "8.3 µg/mL"}
{"compound": "CCCCCCCCCCCCCCCCCCOC(=O)NC(C)(CCC(=O)O)CCC(=O)O", "strain or isolate": "mc155", "result": "69 µg/mL"}
{"compound": "CCCCCCCCOc1cc(-c2ccc(F)cc2)nc2ccccc12", "strain or isolate": "ATCC 607", "result": "250 µg/mL"}
{"compound": "COc1ccccc1-c1[nH]c2ccccc2c1C1=C(Br)C(=O)NC1=O", "strain or isolate": "SG987", "result": "12.5 µg/mL"}
{"compound": "CC(C)CCC[C@@H](C)[C@H]1CC[C@H]2[C@@H]3CC[C@H]4C[C@H](NC(=O)NC(CCC(=O)O)(CCC(=O)O)CCC(=O)O)CC[C@]4(C)[C@H]3CC[C@]12C", "strain or isolate": "mc155", "result": "34 µg/mL"}
{"compound": "Cc1ccccc1NC(=O)CCCCc1[nH]c2ccccc2c1C1=C(Br)C(=O)NC1=O", "strain or isolate": "SG987", "result": "25 µg/mL"}
{"compound": "CCCCCCCCCCCCCCCCCCCCCCNC(=O)NC(CCC(=O)O)(CCC(=O)O)CCC(=O)O", "strain or isolate": "mc155", "result": "36 µg/mL"}
{"compound": "CCCCc1c(C2=C(Br)C(=O)NC2=O)c2ccccc2n1C", "strain or isolate": "SG987", "result": "6.25 µg/mL"}
{"compound": "CCCCCCCCCCOc1cc(-c2ccccc2F)nc2ccccc12", "strain or isolate": "ATCC 607", "result": "500 µg/mL"}

Repeating the first 2 entries:

{"compound": "O=C1CC(c2cccc(F)c2)Nc2ccccc21", "strain or isolate": "ATCC 607", "result": "62.5 µg/mL"}
{"compound": "NNC(=O)c1ccncc1", "strain or isolate": "mc2651", "result": "50 µg/mL"}